# Assay results from PubChem BioAssay AID375 (SRMLSC, 2006).
# Amino acid sequences for entries named in this document (tags omitted).
# UniProt P9WIL5, whole entry: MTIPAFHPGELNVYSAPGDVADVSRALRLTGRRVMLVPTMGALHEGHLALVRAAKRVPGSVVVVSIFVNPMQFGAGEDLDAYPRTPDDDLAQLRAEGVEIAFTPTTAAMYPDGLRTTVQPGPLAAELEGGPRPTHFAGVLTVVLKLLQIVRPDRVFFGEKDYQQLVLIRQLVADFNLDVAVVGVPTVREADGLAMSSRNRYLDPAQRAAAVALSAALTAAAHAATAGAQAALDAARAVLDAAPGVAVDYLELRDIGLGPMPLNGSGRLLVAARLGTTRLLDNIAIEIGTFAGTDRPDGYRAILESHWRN
# The entries are a selection whose mix differs from that of the whole data set. The source made the active and inactive calls. How the calls were made is not given here.
# Biological target: Pantothenate synthetase (Mycobacterium tuberculosis (strain ATCC 25618 / H37Rv)) (UniProt P9WIL5)
# Experiment: Recombinant Mtb pantothenate synthetase (PanC) inhibitors, coupled enzyme, confirmatory (AID 375);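 further: 0% = full reaction with vehicle and 100% = no enzyme background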
# Settings: coupled enzyme assay, at 10 µM, stronger effect = higher value
row,Structure (SMILES),inhibition
1,Fc1ccccc1NC1CCN(Cc2ccccc2)CC1,inactive: 9%
